A mixed list of measured activities; the numbers were collected in NIAID ChemDB.

Common to all: growth or infection tests; species: HIV-1; cell line: MT-4; endpoint: fold resistance

An empty or dashed field is not shown. Fold resistance has wild type as its base. Neighbouring rows are from separate reports.

SMILES	strain	changes	read by	result
CC(=O)O[C@@]12C[C@@H](C)[C@@]3(O)[C@@H](C=C(CO)C[C@]4(O)C(=O)C(C)=C[C@@H]34)[C@@H]1C2(C)C	NRTI resistant	RT K70R T215Y 69SS A62V E79K V118I M184V E203K L210W	cytopathic effect / MTT	0.8
CN(C)c1cccc2c1nc(-c1c(F)cccc1F)n2Cc1c(F)cccc1F		RT-V108I	cytopathic effect / MTT	6.4
Nc1ccn([C@H]2CC[C@@H](CO)O2)c(=O)n1	HXB2-D184+294 (RT M184V P294S)	RT-M184V P294S	RT activity	5.91
CC(=O)Nc1cccc2c1nc(-c1c(F)cccc1F)n2Cc1c(F)cccc1F		RT-V108I	cytopathic effect / MTT	17.1
COC(=O)N[C@H](C(=O)N[C@@H](Cc1ccccc1)[C@@H](O)CN(Cc1ccc(-c2ccccn2)cc1)NC(=O)[C@@H](NC(=O)OC)C(C)(C)C)C(C)(C)C	NL4-3	L10I L33I M36I M46I I54V K55R I62V L63P A71V G73S V82T L90M I93L	p24 / luminescence	>213
CC(C)CN(C[C@@H](O)[C@H](Cc1ccccc1)NC(=O)O[C@H]1CO[C@H]2OCC(F)(F)[C@H]21)S(=O)(=O)c1ccc(N)cc1	NL4-3	L10F V32I M46I I45M A71V I84V APV resistant		187
CC(C)CN(C[C@@H](O)[C@H](Cc1ccccc1)NC(=O)O[C@H]1CCOC1)S(=O)(=O)c1ccc(N)cc1	NL4-3-P22 (PR D30N A71V)	PR-D30N A71V	p24	0.5
Cc1ccccc1CNC(=O)[C@H]1N(C[C@@H](O)C[C@@H](Cc2ccccc2)C(=O)N[C@H]2c3ccccc3OC[C@H]2O)CSC1(C)C		PR-V18C	p24	4
CCc1cc(NCc2nc3c(Cl)ccc(Cl)c3o2)c(=O)[nH]c1C	R88703-resistant IIIB (RT Y181C)	RT-Y181C	p24	70
CC(C)=CCN1c2cc(Cl)cc3[nH]c(=S)n(c23)C[C@@H]1C		RT-D67N K70R T215Y K219Q		0.5
Cc1cn([C@H]2C=C[C@@H](CO)O2)c(=O)[nH]c1=O	DI-06.92 (HXB2 RT-K70R)	RT-K70R	cytopathic effect	7.6
CC(C)CN(C[C@@H](O)[C@H](Cc1ccccc1)NC(=O)O[C@H]1CCOC1)S(=O)(=O)c1ccc(N)cc1	NL4-3	M46I I50V N38K M36I GRL05010-resistant		>13
CC(C)CN(C[C@@H](O)[C@H](Cc1ccccc1)NC(=O)O[C@H]1CCO[C@H]2OCC[C@H]21)S(=O)(=O)c1ccc2nc(NC3CC3)sc2c1	NL4-3	L10I I54V K20R L24I V32I L33F M36I M46I I54M L63P K70Q V82I I84V L89M	p24 / luminescence	>1667
CC(C)Nc1cccnc1N1CCN(C(=O)c2cc3cc(NS(C)(=O)=O)ccc3[nH]2)CC1	BI-12.96 (HXB2(RT-A62V S68G T69D V75I F77L F116Y Q151M))	RT-A62V S68G T69D V75I F77L F116Y Q151M	cytopathic effect	5
CC(=O)c1ccc(C)cc1NC(C(N)=O)c1c(Cl)cccc1Cl	HE/NEV(RT-Y181C)	RT-Y181C	p24	>3703
COC(=O)N[C@H](C(=O)N[C@@H](Cc1ccccc1)[C@@H](O)CN(Cc1ccc(-c2ccccn2)cc1)NC(=O)[C@@H](NC(=O)OC)C(C)(C)C)C(C)(C)C	NL4-3	L23I E34Q K43I M46I I50L G51A L63P A71V V82A T91A ATV resistant		>250
CCN[C@H]1CO[C@@H]2OCC[C@H](OC(=O)N[C@@H](Cc3ccccc3)[C@H](O)CN(CC(C)C)S(=O)(=O)c3ccc4nc(NC5CC5)sc4c3)[C@@H]21	NL4-3	L23I E34Q K43I M46I I50L G51A L63P A71V V82A T91A	p24 / luminescence	0.3
Nc1cccc2c1nc(-c1c(F)cccc1F)n2Cc1c(F)cccc1F	RT-4XAZT+L100I	RT-D67N K70R L100I T215Y K219Q	cytopathic effect / MTT	0.75
CC(=O)Oc1ccc(/C=C/C(=O)O[C@@H](C(=O)O)[C@@H](OC(=O)/C=C/c2ccc(OC(C)=O)c(OC(C)=O)c2)C(=O)O)cc1OC(C)=O	NL4-3	AR177-resistant	cytopathic effect / MTT	>9
CC(=O)Oc1ccc(/C=C/C(=O)O[C@@H](C(=O)O)[C@@H](OC(=O)/C=C/c2ccc(OC(C)=O)c(OC(C)=O)c2)C(=O)O)cc1OC(C)=O	NL4-3	Dextran sulfate-resistant		>9.25
Cc1cn([C@H]2C[C@H](N=[N+]=[N-])[C@@H](CO)O2)c(=O)[nH]c1=O	HXB2D (RT-K65R)	RT-K65R	p24	0.917
CCN[C@H]1CO[C@@H]2OCC[C@H](OC(=O)N[C@@H](Cc3cccc(OC)c3)[C@H](O)CN(CC(C)C)S(=O)(=O)c3ccc4nc(NC(C)C)sc4c3)[C@@H]21	NL4-3	L10I L33I M36I M46I I54V K55R I62V L63P A71V G73S V82T L90M I93L	p24 / luminescence	2.2
Fc1cccc(F)c1Cn1c(-c2c(F)cccc2F)nc2c(Br)cccc21		RT-Y181C	cytopathic effect / MTT	16.8
CC(C)CN(C[C@@H](O)[C@H](Cc1ccccc1)NC(=O)O[C@H]1CCOC1)S(=O)(=O)c1ccc(N)cc1	NL4-3	L10I L33I M36I M46I I54V K55R I62V L63P A71V G73S V82T L90M I93L	p24 / luminescence	>27
Nc1ccn([C@H]2CC[C@@H](CO)O2)c(=O)n1	DI-06.92 (HXB2 RT-K70R)	RT-K70R	cytopathic effect	1.64

Again, the opening 2 rows:

| SMILES | strain | changes | read by | result |
|---|---|---|---|---|
| CC(=O)O[C@@]12C[C@@H](C)[C@@]3(O)[C@@H](C=C(CO)C[C@]4(O)C(=O)C(C)=C[C@@H]34)[C@@H]1C2(C)C | NRTI resistant | RT K70R T215Y 69SS A62V E79K V118I M184V E203K L210W | cytopathic effect / MTT | 0.8 |
| CN(C)c1cccc2c1nc(-c1c(F)cccc1F)n2Cc1c(F)cccc1F |  | RT-V108I | cytopathic effect / MTT | 6.4 |